Measurements reported in PubChem BioAssay AID1224833 (University of Georgia, 2016).

Purpose: 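Human genes whose knock-down alters rotavirus replication in monkey cells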 (primary screen)
Cell system: monkey MA104 kidney cells
Reagent: siRNA pool against human genes, 50 nM
Timing: 48 h knock-down before infection; read 24 h after infection
Treatment: infection with rotavirus strain RV3 two days after transfection; infectious dose for this stage not given
Measured: 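z-score of rotavirus antigen signal per well, from a fluorescent immunoassay, relative to non-targeting control wells on the same plate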
Scale: z-score vs non-targeting control: higher = more rotavirus replication than with non-targeting control
Hit rule: In these data the active calls have z-score vs non-targeting control at about -1 or lower, or at about 1 or higher
Calls: active = z-score beyond 1 either way; inactive = z-score within 1 of zero
In all, the deposit lists about 12,000 reagents; shown is an unselected part. Over the whole deposit, about 5,600 (46%) were called active. 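Active calls cover z-scores past 1 in both directions, so they include lowered as well as raised rotavirus replication.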

| gene | z-score vs non-targeting control | call |
| --- | --- | --- |
| IFT27 | -2.5 | active |
| ABHD5 | 1.18 | active |
| SYT11 | -1.48 | active |
| MRPS35 | 0.618 | inactive |
| ZNF503 | 0.816 | inactive |
| HBS1L | -0.833 | inactive |
| ANK3 | -1.09 | active |
| TMEM268 | -0.226 | inactive |
| SGPL1 | 0.715 | inactive |
| SLA | -0.339 | inactive |
| NOS1AP | 0.262 | inactive |
| IK | -1.72 | active |
| LYZL1 | 2.31 | active |
| LILRA3 | -0.848 | inactive |
| PRPSAP2 | -0.381 | inactive |
| IL32 | -1.53 | active |
| DVL2 | 0.274 | inactive |
| BRS3 | -1.11 | active |
| ZNF329 | -1.01 | active |
| TRAPPC8 | 0.22 | inactive |
| CLYBL | 1.72 | active |
| PPT2 | -1.69 | active |
| IFNA8 | -0.296 | inactive |
| TEX55 | 0.932 | inactive |
| OLFM3 | 0.0954 | inactive |
| RPRD1B | -0.106 | inactive |
| PCDHB13 | 0.936 | inactive |
| SRSF4 | -0.284 | inactive |
| PHTF2 | -1.17 | active |
| ANAPC5 | -3.33 | active |
| CFHR1 | -0.177 | inactive |
| ACTB | -0.172 | inactive |
| PGAP2 | 0.155 | inactive |
| MS4A1 | 0.516 | inactive |
| MCMBP | -0.42 | inactive |
| SFTPA2 | -0.526 | inactive |
| KLHL25 | 2.58 | active |
| TGFB2 | 1.01 | active |
| POU3F2 | 0.666 | inactive |
| CRIPAK (retired record) | -1.58 | active |
| STX12 | 0.548 | inactive |
| TMEM63B | 0.935 | inactive |
| SKI | -0.303 | inactive |
| CORO1C | -1.57 | active |
| MAGED4 | 1.36 | active |

A portion of the results above:
| gene | z-score vs non-targeting control | call |
| --- | --- | --- |
| CLYBL | 1.72 | active |
| PPT2 | -1.69 | active |
| IFNA8 | -0.296 | inactive |
| TEX55 | 0.932 | inactive |
| OLFM3 | 0.0954 | inactive |
